In doi:10.1101/2025.02.03.636340 (bioRxiv, 2025):

B1: β-arr1-ΔCTD-Halo (rat beta-arrestin 1 lacking the autoinhibitory C-terminal domain, aa 383-418) (domain or fragment)
chain: MGDKGTRVFKKASPNGKLTVYLGKRDFVDHIDLVDPVDGVVLVDPEYLKERRVYVTLTCAFRYGREDLDVLGLTFRKDLFVANVQSFPPAPEDKKPLTRLQERLIKKLGEHAYPFTFEIPPNLPCSVTLQPGPEDTGKACGVDYEVKAFCAENLEEKIHKRNSVRLVIRKVQYAPERPGPQPTAETTRQFLMSDKPLHLEASLDKEIYYHGEPISVNVHVTNNTNKTVKKIKISVRQYADICLFNTAQYKCPVAMEEADDTVAPSSTFCKVYTLTPFLANNREKRGLALDGKLKHEDTNLASSTLLREGANREILGIIVSYKVKVKLVVSRGGLLGDLASSDVAVELPFTLMHPKPKEEPPHREVPESETPVDTNLIELDTN
modifications: Halo tag labelled with CA-JF549 (or a mix of CA-JF549 and CA-JF646)
B2: β-arr1-ΔCTD co-purified with HA-FLAG-mGluR8 (domain or fragment)
chain: B1 chain
B3: β-arr1-Halo (rat beta-arrestin 1, wild type, C-terminally Halo-tagged) (natural protein)
chain: MGDKGTRVFKKASPNGKLTVYLGKRDFVDHIDLVDPVDGVVLVDPEYLKERRVYVTLTCAFRYGREDLDVLGLTFRKDLFVANVQSFPPAPEDKKPLTRLQERLIKKLGEHAYPFTFEIPPNLPCSVTLQPGPEDTGKACGVDYEVKAFCAENLEEKIHKRNSVRLVIRKVQYAPERPGPQPTAETTRQFLMSDKPLHLEASLDKEIYYHGEPISVNVHVTNNTNKTVKKIKISVRQYADICLFNTAQYKCPVAMEEADDTVAPSSTFCKVYTLTPFLANNREKRGLALDGKLKHEDTNLASSTLLREGANREILGIIVSYKVKVKLVVSRGGLLGDLASSDVAVELPFTLMHPKPKEEPPHREVPESETPVDTNLIELDTNDDDIVFEDFARQRLKGMKDDKDEEDDGTGSPHLNNR
modifications: Halo tag labelled with CA-JF549

Experiments:
[1] = molecular target: HA-SNAP-mGluR2 (rat metabotropic glutamate receptor 2) (rat, SNAP tag labelled with SBG-JF646); test: single molecule pulldown
[2] = molecular target: HA-SNAP-mGluR3 (rat metabotropic glutamate receptor 3) (rat, SNAP tag labelled with SBG-JF646); test: single molecule pulldown
[3] = molecular target: T1, HA-FLAG-mGluR8 (full-length, human, wild-type mGluR8 for EM) (human, UniProt O00222 34-908); test: negative stain EM
T1 sequence: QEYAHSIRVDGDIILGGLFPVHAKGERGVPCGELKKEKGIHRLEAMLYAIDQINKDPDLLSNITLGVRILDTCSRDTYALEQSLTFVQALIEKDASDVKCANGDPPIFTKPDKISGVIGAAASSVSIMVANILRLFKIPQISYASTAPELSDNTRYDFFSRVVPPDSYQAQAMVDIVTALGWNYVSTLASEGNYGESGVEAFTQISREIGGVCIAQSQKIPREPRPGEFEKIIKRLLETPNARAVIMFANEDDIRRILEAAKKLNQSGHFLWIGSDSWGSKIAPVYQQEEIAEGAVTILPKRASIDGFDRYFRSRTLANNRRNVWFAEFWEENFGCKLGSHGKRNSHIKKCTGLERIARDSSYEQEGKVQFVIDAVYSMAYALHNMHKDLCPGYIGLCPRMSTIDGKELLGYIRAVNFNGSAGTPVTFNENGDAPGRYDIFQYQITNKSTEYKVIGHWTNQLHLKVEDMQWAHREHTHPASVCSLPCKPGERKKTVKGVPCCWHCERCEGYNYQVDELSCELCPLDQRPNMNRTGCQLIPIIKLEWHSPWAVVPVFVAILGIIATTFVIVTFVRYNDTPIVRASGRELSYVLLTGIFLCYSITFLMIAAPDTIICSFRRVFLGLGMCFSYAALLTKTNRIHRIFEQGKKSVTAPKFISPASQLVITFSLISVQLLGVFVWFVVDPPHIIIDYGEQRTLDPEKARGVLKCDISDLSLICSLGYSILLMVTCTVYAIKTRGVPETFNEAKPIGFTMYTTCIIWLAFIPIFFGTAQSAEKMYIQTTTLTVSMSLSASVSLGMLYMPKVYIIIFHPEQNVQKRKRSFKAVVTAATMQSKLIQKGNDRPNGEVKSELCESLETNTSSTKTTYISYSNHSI

Row | Binder | % colocalization [1] [%] | % colocalization [2] [%] | binding result [3]
1 | B1 | < 5 | ~25 | 
2 | B2 |  |  | binds
3 | B3 | < 5 |  | 
